Data: PMC8257661
Construct, isoform or probe ends are uncertain for at least one entry. At least one verdict was read from the data and is not stated in words by the source.

What was measured:
[1] = biological target: JUNV L protein (RNA-dependent RNA polymerase) (Junin virus (JUNV)) (UniProt Q6XQI4); assay: EMSA; conditions: L:vRNA 1:1.2; 50 mM Tris-HCl pH 8.0, 500 mM NaCl, 10% ([…]; recombinant protein; residues 1-2210
[2] = test system: JUNV L protein (RNA-dependent RNA polymerase) + JUNV Z protein (matrix zinc-binding protein); assay: EMSA; conditions: L-Z complex; 50 mM Tris-HCl pH 8.0, 500 mM NaCl, 10% ([…]; recombinant protein

## GAUUCCUCCAUGCUCAAGUGCCGCCUAGGAUCCUCGGUGC [L-segment 3'-vRNA 40 nt]
[1]
  binding result: binds
[2]
  binding result: binds
